A mixed list of measured activities; the numbers were collected in NIAID ChemDB.

Shared fields: tests in culture; organism: Candida albicans; read-out: MIC

An empty or dashed field is not shown. Conditions beyond the fields shown may differ between rows.

| structure | strain or isolate | method | result |
|---|---|---|---|
| Cc1n[nH]c(=O)n1CCCCCCn1c(C)n[nH]c1=O | ATCC 90028 | - | 7.5 µg/mL |
| O=C(Nc1ccc2c(c1)Sc1ccccc1O2)N(c1ccccc1)c1ccccc1 | C316 | - | 0.4 µg/mL |
| Cc1nc2c(CN)c(-c3ccc(C)o3)c(CN)c(=O)n2[nH]1 | - | - | 1.56 µg/mL |
| C[C@H](n1nnnc1CCN1CCN(c2ccc([N+](=O)[O-])cc2)CC1)[C@](O)(Cn1cncn1)c1ccc(F)cc1F | - | - | 2 µg/mL |
| O=C(Nc1ccc2c(c1)Sc1ccccc1O2)c1ccncc1 | C316 | - | 12 µg/mL |
| CN[C@@H]1[C@H](O[C@@H]2O[C@H](CO)[C@@H](O)[C@H](S(=O)(=O)O)[C@H]2O)[C@@H](O)[C@H](O[C@H]2c3cc(C)c(C(=O)N[C@H](C)C(=O)O)c(O)c3-c3c(cc4c(c3O)C(=O)c3cc(OC)cc(O)c3C4=O)[C@@H]2O)O[C@@H]1C | 8302-14 | - | 25 µg/mL |
| CCCCCCCCCCCOC(=O)C(N)Cc1ccc(OC)cc1 | - | - | 1000 µg/mL |
| CCCCCC[C@H]1OC(=O)CNC(=O)[C@@H]([C@H](C)OC)NC(=O)[C@@H](CO)NC(=O)[C@H]([C@H](C)CC)NC(=O)[C@H](CC(C)C)N(C)C(=O)[C@@H]1C | - | - | >100 µg/mL |
| C[C@@H](n1cnc2cc(/C(N)=N/S(N)(=O)=O)ccc2c1=O)[C@](O)(Cn1cncn1)c1ccc(F)cc1F | 406 strains | - | 10 µg/mL |
| CCOc1ccc(/C=C2\CCc3ccccc3C2=O)cc1 | - | - | 50 µg/mL |
| O=[N+]([O-])c1ccc(S(=O)(=O)Nc2ccc3c(c2)Sc2ccccc2O3)cc1 | C316 | - | 4 µg/mL |
| C[C@H](n1nnc(CCN2CCN(c3ccccc3Cl)CC2)n1)[C@](O)(Cn1cncn1)c1ccc(F)cc1F | V-01-191A-261 (resistant) | - | 8 µg/mL |
| CN(Cc1cccc2ccccc12)/N=C\c1ccccc1F | - | - | >64 µg/mL |
| Cc1nn(-c2ccccc2)c2c1C(c1ccc(Cl)cc1)c1c(nc(=O)[nH]c1N)O2 | MTCC 227 | - | 250 µg/mL |
| C[C@@H](c1ncncc1F)[C@](O)(Cn1cncn1)c1ccc(F)cc1F | Isolate 98-210 | - | 0.03 µg/mL |
| COc1cncc(C(N)=NN(C)S(=O)(=O)c2ccccc2)n1 | - | broth dilution | >256 µg/mL |
| O=[N+]([O-])c1ccc(N2CCN(CCc3nnnn3CC(O)(Cn3cncn3)c3ccc(F)cc3F)CC2)cc1 | V-01-191A-261 (resistant) | - | 8 µg/mL |
| C/C=C/OC(=O)C(N)Cc1ccccc1 | - | - | 500 µg/mL |
| CC(C)(C)c1ccc(COC(Cn2ccnc2)c2ccc(Cl)cc2Cl)cc1 | CA2 | - | 128 µg/mL |
| CN(Cc1cccc2ccccc12)/N=C\c1ccc(C(C)(C)c2ccccc2)cc1 | - | - | >64 µg/mL |
| Nc1cccc(S(=O)(=O)Nc2ccc3c(c2)Sc2ccccc2O3)c1 | C316 | - | 10 µg/mL |
| C(=C\c1ccccc1)/COC(Cn1ccnc1)c1ccccc1 | CA7 | - | 128 µg/mL |
| CCCCCOC(=O)C(N)Cc1ccc(OC)c(Cl)c1 | - | - | 250 µg/mL |
| CCCCCCCCCCCCCCCCCC(=O)NC1CC(O)C(O)NC(=O)C2C(O)C(C)CN2C(=O)C(C(C)O)NC(=O)C(C(O)C(O)c2ccc(O)cc2)NC(=O)C2CC(O)CN2C(=O)C(C(C)O)NC1=O | MY1783 | - | 1 µg/mL |
| CCC(=O)C1Sc2ccccc2N(C2CCCCCCC2)C1=O | ATCC 14053 | - | ≥100 µg/mL |
| CCCCCC[C@H]1OC(=O)CNC(=O)[C@@H]([C@H](C)O)NC(=O)[C@@H](CO)NC(=O)[C@H]([C@H](C)CC)NC(=O)[C@H](CC(C)C)N(C)C(=O)[C@@H]1C | - | - | >100 µg/mL |
| COc1ccccc1N1CCN(CCc2nnnn2[C@@H](C)[C@](O)(Cn2cncn2)c2ccc(F)cc2F)CC1 | V-01-191A-261 (resistant) | - | 8 µg/mL |
| Cc1ccc2c(c1)S/C(=C\C(=O)C(C)C)N2C1=CCCCCC1 | ATCC 14053 | - | ≥100 µg/mL |
| C=CCNC(=S)Nc1ccc2c(c1)Sc1ccccc1O2 | C316 | - | 5 µg/mL |
| C[C@@H](n1cnc2cc(-[n+]3cnc[nH]3)ccc2c1=O)[C@](O)(Cn1cncn1)c1ccc(F)cc1F | 406 strains | - | 10 µg/mL |
| c1ccc(C(Cn2ccnc2)OCc2cccc3ccccc23)cc1 | CA6 | - | >128 µg/mL |
| Cc1nn(-c2ccccc2)c2c1C(c1ccc(F)cc1)C(C#N)=C(N)O2 | MTCC 227 | - | 200 µg/mL |
| c1ccc(-[n+]2cnc(-c3cnccn3)[nH]2)cc1 | - | broth dilution | >256 µg/mL |
| Cc1ccc(C(Cn2ccnc2)OCc2ccc(-c3ccccc3)cc2)cc1 | CDCB385 | - | 128 µg/mL |
| Cc1cccc(/C=N\N(C)Cc2cccc3ccsc23)c1 | - | - | >64 µg/mL |
| CCCCCCCOC(=O)C(N)Cc1ccc(OC)cc1 | - | - | 500 µg/mL |
| Cc1ccc(C(Cn2ccnc2)OC/C=C/c2ccccc2)cc1 | CA2 | - | 128 µg/mL |
| C[n+]1cnc(-c2cnccn2)[nH]1 | - | broth dilution | >256 µg/mL |
| O=[N+]([O-])c1ccc(SNc2ccc3c(c2)Sc2ccccc2O3)cc1 | C316 | - | 1.1 µg/mL |
| Cc1ccc(O)c(C(=O)/C=C/c2ccc(O)cc2O)c1 | SDAU4 | - | 75 µg/mL |
| CCCCCCOC(=O)C(N)Cc1cc(I)c(OC)c(I)c1 | - | - | 1000 µg/mL |
| O=C1CCC/C1=C1/Sc2ccccc2N1C1CCCCCC1 | ATCC 10231 | - | 100 µg/mL |
| C[C@@H](n1cnc2cc(Br)ccc2c1=O)[C@](O)(Cn1cncn1)c1ccc(F)cc1F | 76 strains | - | 0.15 µg/mL |
| CCc1ccc(/C=C2\CCc3ccccc3C2=O)cc1 | - | - | 25 µg/mL |
| CCCCCCCCCC[C@H]1OC(=O)CNC(=O)[C@@H]([C@H](C)O)NC(=O)[C@@H](CO)NC(=O)[C@H]([C@H](C)CC)NC(=O)[C@H](CC(C)C)N(C)C(=O)[C@@H]1C | - | - | >100 µg/mL |
| C[C@@H](n1cnc2cc(N3CCOCC3)ccc2c1=O)[C@](O)(Cn1cncn1)c1ccc(F)cc1F | 406 strains | - | 0.15 µg/mL |
| CCCCCCCCCCOC(=O)C(N)Cc1ccc(OC)cc1 | - | - | 250 µg/mL |
| C[C@H](n1nnc(CCN2CCN(c3ccc([N+](=O)[O-])cc3)CC2)n1)[C@](O)(Cn1cncn1)c1ccc(F)cc1F | - | - | 4 µg/mL |
| Cc1nn(-c2ccccc2)c2c1C(c1ccccc1Cl)C(C#N)=C(N)O2 | MTCC 227 | - | 500 µg/mL |
| OC(Cn1cncn1)(Cn1cncn1)c1ccc(F)cc1F | - | - | 0.097 µg/mL |
| O=[N+]([O-])c1ccc(N2CCN(CCc3nnn(CC(O)(Cn4cncn4)c4ccc(F)cc4F)n3)CC2)cc1 | V-01-191A-261 (resistant) | - | 8 µg/mL |
| Clc1ccc(C(Cn2ccnc2)OC/C=C/c2ccccc2)cc1 | CDCB385 | - | 128 µg/mL |
| C[C@H](n1cnc2cc(C(F)(F)F)ccc2c1=O)[C@](O)(Cn1cncn1)c1ccc(F)cc1F | 406 strains | - | ≤0.03 µg/mL |
| C[C@H](n1nnc(CCN2CCN(c3ccc(Cl)cc3)CC2)n1)[C@](O)(Cn1cncn1)c1ccc(F)cc1F | V-01-191A-261 (resistant) | - | 4 µg/mL |
| Clc1cncc(-c2nc[n+](-c3ccccc3)[nH]2)n1 | - | broth dilution | >256 µg/mL |
| C[C@@H](n1cnc2cccc(F)c2c1=O)[C@](O)(Cn1cncn1)c1ccc(F)cc1F | 406 strains | - | 0.15 µg/mL |
| CCCCCCCCOc1ccc(C(=O)NC2C[C@@H](O)[C@@H](O)NC(=O)C3[C@@H](O)[C@@H](C)CN3C(=O)C(C(C)O)NC(=O)C([C@H](O)[C@@H](O)c3ccc(O)cc3)NC(=O)C3C[C@@H](O)CN3C(=O)C(C(C)O)NC2=O)cc1 | MY1028 | - | 0.5 µg/mL |
| CC(=O)NNC(=O)NCCCCCCNC(=O)NNC(C)=O | ATCC 90028 | - | 7.5 µg/mL |
| COc1cc(/C=N\N(C)Cc2cccc3ccccc23)ccc1O | - | - | >64 µg/mL |
| O=C1/C(=C/c2ccc3c(c2)OCO3)CCc2ccccc21 | - | - | 50 µg/mL |
| C[C@H](n1nnnc1CCN1CCN(c2ccc(F)cc2)CC1)[C@](O)(Cn1cncn1)c1ccc(F)cc1F | V-01-191A-261 (resistant) | - | 2 µg/mL |
| CN(Cc1cccc2ccsc12)/N=C\C#CC(C)(C)C | - | - | >64 µg/mL |
| Cc1ccc(S(=O)(=O)NC(=O)Nc2cccc(S(=O)(=O)Nc3ccc4c(c3)Sc3ccccc3O4)c2)cc1 | C316 | - | 0.5 µg/mL |
| O=C(NCCCCCCNC(=O)NNC(=O)c1ccccc1)NNC(=O)c1ccccc1 | - | - | 7.5 µg/mL |
| CCCCN1C(=O)C2(CCN(Cc3ccccc3)CC2=O)Sc2ccccc21 | ATCC 14053 | - | ≥100 µg/mL |
| CC(C)(C)c1ccc(COC(Cn2ccnc2)c2ccccc2)cc1 | 3M | - | >128 µg/mL |
| O=C(/C=C/c1ccc(O)cc1O)c1ccccc1 | SDAU2 | - | 75 µg/mL |
| COc1ccc(/C=C2\CSc3ccc(Cl)cc3C2=O)cc1 | - | - | 25 µg/mL |
| Cc1nn(-c2ccccc2)c2c1C(c1ccc(F)cc1)c1c(nc(=O)[nH]c1N)O2 | MTCC 227 | - | 150 µg/mL |